PSTVd loop 6 mutant pool in Nicotiana benthamiana

Reference: Wu et al. 2024, doi:10.1371/journal.ppat.1012142.

Region: loop 6 of PSTVd (intermediate strain), upper and lower strand joined, each 5' to 3', the first 5 letters being the upper strand, closing pairs included. Wild type: UGACCGCGAG. Varied positions (N): UNNNCGNNNG.

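A pool of all variants was put on leaves of three Nicotiana benthamiana plants. Samples came from the inoculated region at 5 days, the leaf margin at 10 and upper systemic leaves at 12.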

Values are reads per thousand in the sample; higher means more abundant, 0 means not found.
Each value is the mean of three plants.
"Pool" is the share in the plasmid pool used as inoculum, on the same scale.
The inoculated region was read from the minus strand, the other sites from the plus strand.
IR is the inoculated region, LM the leaf margin, Sys the systemic leaves.
Wild type was 20.7 per thousand in the pool and the most common sequence in every sample (inoculated region 195, 198, 203; leaf margin 629, 591, 734; systemic leaves 942, 870, 868).
Samples held 36,220 to 57,551 reads, so the smallest values rest on one or two reads.
Sequences that differ at fixed positions probably stem from PCR or sequencing errors, and defective variants can be carried along by functional ones.

| # | sequence | pool | IR | LM | Sys |
|---|---|---|---|---|---|
| 1 | UAAACGAAUG | 0.248 | 0.107 | 0 | 0 |
| 2 | UAACCGACCG | 0.196 | 0.114 | 0.0169 | 0 |
| 3 | UAAGCGACGG | 0.196 | 0.0662 | 0.0247 | 0 |
| 4 | UACACGAAUG | 0.261 | 0.102 | 0.00920 | 0 |
| 5 | UACACGCGUG | 0.118 | 0.0898 | 0 | 0 |
| 6 | UACACGUGCG | 0.157 | 0.102 | 0.00773 | 0 |
| 7 | UACCCGCCAG | 0.157 | 0.646 | 0.0973 | 0 |
| 8 | UACGCGAAAG | 0.144 | 0.0472 | 0 | 0 |
| 9 | UACUCGGUUG | 0.275 | 0.0710 | 0 | 0 |
| 10 | UAGCCGUGCG | 0.261 | 0.137 | 0.0445 | 0 |
| 11 | UAGUCGGUCG | 0.222 | 0.147 | 0.00920 | 0 |
| 12 | UAUACGCGGG | 0.353 | 0.0901 | 0.00773 | 0.00673 |
| 13 | UAUACGGACG | 0.275 | 0.726 | 0.0798 | 0.0475 |
| 14 | UAUCCGCGAG | 0.144 | 0.264 | 0.0958 | 0.0461 |
| 15 | UAUUCGGAUG | 0.340 | 0.654 | 0.0921 | 0 |
| 16 | UCACCGAGGG | 0.0523 | 0.0597 | 0.0324 | 0 |
| 17 | UCACCGGUCU | 0.0131 | 0 | 0 | 0 |
| 18 | UCAGCGCGCG | 0.0915 | 0.0766 | 0 | 0 |
| 19 | UCAGCGUAAG | 0.157 | 0.0942 | 0 | 0.0137 |
| 20 | UCAUCGAAUG | 0.275 | 0.0901 | 0.00773 | 0 |
| 21 | UCCCCGGAAG | 0.131 | 0.113 | 0.0155 | 0 |
| 22 | UCCCCGGUGG | 0.209 | 0.161 | 0.471 | 0 |
| 23 | UCCUCGAUUG | 0.353 | 0.127 | 0 | 0 |
| 24 | UCCUCGGAUG | 0.222 | 0.0646 | 0.0169 | 0 |
| 25 | UCGACGAAUG | 0.353 | 0.0711 | 0.00920 | 0 |
| 26 | UCGACGCCGG | 0.170 | 0.0717 | 0.00773 | 0 |
| 27 | UCGACGGUUG | 0.235 | 0.0959 | 0 | 0 |
| 28 | UCGCCGGAAG | 0.157 | 0.0834 | 0.00773 | 0 |
| 29 | UCUCCGCGAA | 0.0131 | 0.609 | 0.0544 | 0 |
| 30 | UCUCCGGCCG | 0.183 | 0.0647 | 0.00773 | 0 |
| 31 | UCUUCGCACG | 0.170 | 0.0832 | 0 | 0 |
| 32 | UCUUCGCCAG | 0.275 | 0.126 | 0.00773 | 0 |
| 33 | UCUUCGGAGG | 0.288 | 0.125 | 0 | 0 |
| 34 | UGAACGCGAG | 0.118 | 0.204 | 0.687 | 0.743 |
| 35 | UGAGCGUCUG | 0.248 | 0.0901 | 0.00773 | 0.00684 |
| 36 | UGAUCGGACG | 0.209 | 0.101 | 0.00773 | 0.00684 |
| 37 | UGAUCGGCCG | 0.235 | 0.0775 | 0 | 0 |
| 38 | UGAUCGGUCG | 0.366 | 0.107 | 0.00920 | 0 |
| 39 | UGCACGUAGG | 0.275 | 0.113 | 0.00773 | 0 |
| 40 | UGCACGUUGG | 0.275 | 0.0954 | 0.00773 | 0 |
| 41 | UGCGCGCGAG | 0.222 | 0.244 | 0.421 | 0 |
| 42 | UGGCCGCGCG | 0.209 | 0.162 | 0.0261 | 0.0534 |
| 43 | UGGCUGUGAG | 0.0131 | 0.500 | 0.0684 | 0 |
| 44 | UGGGCGAGUG | 0.248 | 0.0588 | 0.00920 | 0 |
| 45 | UGGGCGCAGG | 0.157 | 0.0840 | 0 | 0 |
| 46 | UGGUCGACCG | 0.222 | 0.0656 | 0.00920 | 0 |
| 47 | UGGUCGCGCG | 0.275 | 0.0950 | 0 | 0 |
| 48 | UGUACGACAG | 0.340 | 0.0894 | 0 | 0 |
| 49 | UGUGCGCGAG | 0.366 | 0.282 | 0.0996 | 0.0879 |
| 50 | UGUUCGCAGG | 0.196 | 0.101 | 0.00773 | 0 |
| 51 | UGUUCGCGUG | 0.170 | 0.0957 | 0.0176 | 0 |
| 52 | UGUUCGUAGG | 0.327 | 0.0656 | 0.0169 | 0 |
| 53 | UUAACGACUG | 0.418 | 0.102 | 0.00920 | 0 |
| 54 | UUAACGAGAG | 0.314 | 0.725 | 0.129 | 0.0781 |
| 55 | UUAACGUCUG | 0.288 | 0.136 | 0 | 0 |
| 56 | UUAGCGAUAG | 0.301 | 0.0541 | 0.0943 | 0 |
| 57 | UUAGCGCGAU | 0.0131 | 0.0430 | 0.0169 | 0 |
| 58 | UUAGCGGAGG | 0.196 | 0.0835 | 0 | 0 |
| 59 | UUAGCUACCC | 0.0131 | 0 | 0 | 0 |
| 60 | UUAUCUGUCC | 0.0131 | 0 | 0 | 0 |
| 61 | UUCACGAUCG | 0.301 | 0.107 | 0.00773 | 0 |
| 62 | UUGCCGGCCG | 0.183 | 0.0714 | 0 | 0 |
| 63 | UUGGCGACGG | 0.235 | 0.0478 | 0.0169 | 0.00599 |
| 64 | UUGGCGGAGU | 0.0131 | 0 | 0 | 0 |
| 65 | UUGGCGGCUG | 0.392 | 0.119 | 0 | 0 |
| 66 | UUGUCGGGGG | 0.196 | 0.0943 | 0.00920 | 0 |
| 67 | UUGUCGGUCG | 0.196 | 0.0953 | 0.0184 | 0 |
| 68 | UUUACGAUAG | 0.327 | 0.131 | 0.0464 | 0 |
| 69 | UUUGCGAGGG | 0.196 | 0.0662 | 0 | 0 |
| 70 | UUUGCGCUAG | 0.118 | 0.0474 | 0.0155 | 0 |
| 71 | UUUGCGGGCG | 0.131 | 0.0715 | 0 | 0 |
| 72 | UUUUCGGUUG | 0.209 | 0.101 | 0 | 0 |
| 73 | UUUUCGUGGG | 0.183 | 0.0592 | 0 | 0 |

The opening 6 entries, copied out:

With UAAACGAAUG (pool 0.248) the assay gave IR 0.107; LM 0; Sys 0.
With UAACCGACCG (pool 0.196) the assay gave IR 0.114; LM 0.0169; Sys 0.
With UAAGCGACGG (pool 0.196) the assay gave IR 0.0662; LM 0.0247; Sys 0.
With UACACGAAUG (pool 0.261) the assay gave IR 0.102; LM 0.00920; Sys 0.
With UACACGCGUG (pool 0.118) the assay gave IR 0.0898; LM 0; Sys 0.
With UACACGUGCG (pool 0.157) the assay gave IR 0.102; LM 0.00773; Sys 0.